Test results: article PMC4985751, “Enhanced Cationic Charge is a Key Factor in Promoting Staphylocidal Activity of α-Melanocyte Stimulating Hormone via Selective Lipid Affinity” (Scientific Reports, 2016)

Key:
[1] = Trp fluorescence blue shift in mammalian mimic SUVs; conditions: DMPC SUVs vs 10 mM TES buffer; peptide 12.5 μM, lipid 726 μM (L:P 58:1); 25 °C; excitation 295 nm; three scans averaged
[2] = Trp fluorescence blue shift in bacterial mimic SUVs (7:3); conditions: DMPC:DMPG (7:3, w/w) SUVs vs 10 mM TES buffer; peptide 12.5 μM, lipid 726 μM (L:P 58:1); 25 °C; excitation 295 nm; three scans averaged
[3] = Trp fluorescence blue shift in bacterial mimic SUVs (1:1); conditions: DMPC:DMPG (1:1, w/w) SUVs vs 10 mM TES buffer; peptide 12.5 μM, lipid 726 μM (L:P 58:1); 25 °C; excitation 295 nm

Ac-KYKMKHFRWGKPV-NH2 [KKK-MSH]
Blue shift in emission maximum of Trp residue [1]: 0 nm
Blue shift in emission maximum of Trp residue [2]: 11 nm
Blue shift in emission maximum of Trp residue [3]: 12 nm
